Test system: DH skin reaction to tetanus toxoid
Conditions: in vivo

In the case of Tyrosylglycylglycine [TGG], the “skin reaction without antigen” value is reported as “No reaction”.

From EP0230052B1, “Immunoamplifiers and related Compositions” (Gottlieb, Arthur A., priority 1985, dated 1987)
